Pooled drug test results. Numbers come from NIAID ChemDB, via PubChem.

Common to all: host cell toxicity; cells: MT-4; measure: CC50

Neighbouring rows are from separate reports. CCn is the concentration with n% toxicity to the cells.

smiles	value
CCC[C@@]1(CCc2ccccc2)CC(O)=C([C@H](CC)c2cccc(NS(=O)(=O)c3ccc(C(F)(F)F)cn3)c2)C(=O)O1	18.6 µM
O=C1CCSC(c2c(Cl)cccc2Cl)N1Cc1ccco1	72.72 µM
Cc1cccc(Cc2cc(=O)[nH]c(OCC(C)C)n2)c1	132 µM
COc1ccc2c(C)nc(CCCCCCC(=O)c3ccccc3)n2n1	250 µM
CC(C)OP(=O)(COC[C@H]1C[C@@]1(c1ccccc1)n1ccc(=O)[nH]c1=O)OC(C)C	>100 µM
OC[C@H]1O[C@@H](n2c(=S)[nH]c3cc(Cl)c(Cl)cc32)[C@H](O)[C@@H]1O	>100 µM
Cc1cn([C@H]2C[C@H](N=[N+]=[N-])[C@@H](COP(=O)(OCCS[C@@H]3O[C@H](CO)[C@@H](O)[C@H](O)[C@H]3O)OCCS[C@@H]3O[C@H](CO)[C@@H](O)[C@H](O)[C@H]3O)O2)c(=O)[nH]c1=O	>10 µM
Nc1ncnc2c1ncn2C=C1CC1CO	79.8 µM
Cc1ccc2c(c1)C(=Nc1ccc(S(=O)(=O)Nc3nc(C)cc(C)n3)cc1)C(=O)N2	>125 µg/mL
Nc1ccn([C@H]2CC[C@@H](CO)O2)c(=O)n1	475 µg/mL
CN(C)c1ccc(C2SCC(=O)N2Cc2ccco2)cc1	43.36 µM
Cc1cn([C@H]2C[C@H](N=[N+]=[N-])[C@@H](CO)O2)c(=O)[nH]c1=O	>15 µM
Cc1cc(C)cc(Cc2cc(=O)[nH]c(OC3CCCCC3)n2)c1	>320 µM
Cc1nc(CCCCCCC(=O)c2ccccc2)n2nc(-n3ccnc3)ccc12	26 µM
Cc1cn([C@]2(c3ccccc3)C[C@@H]2COCP(=O)(OC(C)C)OC(C)C)c(=O)[nH]c1=O	>100 µM
Nc1ncnc2c1ncn2[C@@H]1O[C@H](CO)[C@H]1CO	63.7 µM
CC(C)[C@H](NC(=O)OCc1ccccc1)C(=O)N[C@@H](Cc1ccccc1)[C@@H](O)[C@@H](NCc1ccc(Cl)cc1)C(=O)N[C@H](C(=O)NCc1nc2ccccc2[nH]1)C(C)C	9.9 µM
c1ccc(C2SCc3nc4ccccc4n32)cc1	19.2 µM
O=c1[nH]cnc2c1ncn2[C@H]1CC[C@@H](CO)O1	100 µg/mL
NCCCCN(Cc1nc2ccccc2[nH]1)C1CCCc2cccnc21	27.5 µM
COc1ccc(CN[C@@H](C(=O)N[C@H](C(=O)NCc2nc3ccccc3[nH]2)C(C)C)[C@H](O)[C@H](Cc2ccccc2)NC(=O)[C@@H](NC(=O)[C@@](C)(O)c2ccccc2)C(C)(C)C)cc1	9.3 µM
CC12OC[C@H]3O[C@H](C[C@@H]3N=[N+]=[N-])N1C(=O)NC(=O)[C@@]2(C)Br	90 µM
O=S(=O)(O)OCC1OC2OC3C(COS(=O)(=O)O)OC(OC4C(COS(=O)(=O)O)OC(OC5C(COS(=O)(=O)O)OC(OC6C(COS(=O)(=O)O)OC(OC7C(COS(=O)(=O)O)OC(OC8C(COS(=O)(=O)O)OC(OC1C(OS(=O)(=O)O)C2OS(=O)(=O)O)C(OS(=O)(=O)O)C8OS(=O)(=O)O)C(OS(=O)(=O)O)C7OS(=O)(=O)O)C(OS(=O)(=O)O)C6OS(=O)(=O)O)C(OS(=O)(=O)O)C5OS(=O)(=O)O)C(OS(=O)(=O)O)C4OS(=O)(=O)O)C(OS(=O)(=O)O)C3OS(=O)(=O)O	>125 µg/mL
COc1ccc(CN[C@@H](C(=O)N[C@H](C(=O)NCc2nc3ccccc3[nH]2)C(C)C)[C@H](O)[C@H](Cc2ccccc2)NC(=O)[C@@H](NC(=O)CCc2ccc(O)cc2)C(C)(C)C)cc1	17.1 µM
CC(C)(C)NC(=O)[C@@H]1C[C@@H]2CCCC[C@@H]2CN1C[C@@H](O)[C@H](Cc1ccccc1)NC(=O)[C@H](CC(N)=O)NC(=O)c1ccc2ccccc2n1	85 µg/mL
Cc1cc(C)cc(Cc2nc(OCC(C)C)[nH]c(=O)c2C)c1	77 µM
COc1cc(OC)c(C2SCC(=O)N2c2cccc(C)n2)c(OC)c1	194.3 µM
Cc1cccc(Cc2nc(OC3CCCC3)[nH]c(=O)c2C)c1	335 µM
CCc1cc(NCc2nc3c(Cl)ccc(Cl)c3o2)c(=O)[nH]c1C	>60 µM
Cc1cccc(N2C(=O)CSC2c2ccc(N(C)C)cc2)n1	325 µM
Cc1cc(C)nc(NS(=O)(=O)c2ccc(N=C3C(=O)Nc4ccc(Cl)cc43)cc2)n1	>125 µg/mL
O=C1CSC(c2ccnc3ccccc23)N1Cc1ccco1	81.35 µM
CC(C)=CCc1c(O[C@@H]2C[C@H](CO)[C@@H](O)[C@H](O)[C@H]2O)cc(O)c2c(=O)c(O[C@@H]3O[C@@H](C)[C@H](O)[C@@H](O)[C@H]3O[C@@H]3O[C@H](CO)[C@@H](O)[C@H](O)[C@H]3O)c(-c3ccc(O)cc3)oc12	>500 µg/mL
O=C(OC[C@H]1O[C@@H](Oc2ccc(O)c3cccc(O)c23)[C@H](O)[C@@H](O)[C@@H]1O)c1cc(O)c(O)c(O)c1	25 µg/mL
CCC(C)Oc1nc(Cc2cc(C)cc(C)c2)cc(=O)[nH]1	>349 µM
O=c1ccn([C@]2(c3ccccc3)C[C@@H]2COCP(=O)(O)O)c(=O)[nH]1	>100 µM
CC(=O)OC[C@H]1O[C@@H](SCCOP(=O)(OCS[C@@H]2O[C@H](COC(C)=O)[C@@H](OC(C)=O)[C@H](OC(C)=O)[C@H]2OC(C)=O)OC[C@H]2O[C@@H](n3cc(C)c(=O)[nH]c3=O)C[C@@H]2N=[N+]=[N-])[C@H](OC(C)=O)[C@@H](OC(C)=O)[C@@H]1OC(C)=O	>10 µM
OC[C@H]1O[C@@H](Oc2ccc(O)c3cccc(O)c23)[C@H](O)[C@@H](O)[C@@H]1O	25 µg/mL
Cc1cccc(Cc2cc(=O)[nH]c(OC3CCCC3)n2)c1	352 µM
CC(C)=CCc1c(O)ccc(C(=O)/C=C/c2ccc(O)cc2)c1O	13 µg/mL
Cc1cn([C@@H]2O[C@@H](CO)[C@@H](F)[C@H]2O)c(=O)[nH]c1=O	>1000 µM
O=c1[nH]cnc2c1ncn2[C@H]1CC[C@@H](CO)O1	>100 µg/mL
O=c1[nH]cnc2c1ncn2[C@H]1CC[C@@H](CO)O1	>100 µM
C[C@@H]1O[C@@H](Oc2c(-c3cc(O)c(O)c(O)c3)oc3cc(O)cc(O)c3c2=O)[C@H](O)[C@H](O)[C@H]1O	>100 µg/mL
Nc1ccn([C@H]2CC[C@@H](CO)O2)c(=O)n1	134 µM
Cc1cn([C@H]2C=C[C@@H](CO)O2)c(=O)[nH]c1=O	79 µM
O=C(OC[C@H]1O[C@@H](OC(=O)c2ccccc2)[C@H](OC(=O)c2ccccc2)[C@@H](O)[C@@H]1O)c1ccccc1	25 µg/mL
Cc1cc(C#N)cc(C)c1Nc1ccnc(Nc2ccc(C#N)cc2)n1	5.036 µM
CCc1nc([N+](=O)[O-])c(N2CCN(C(=O)CNCCCCCCn3c(=O)c(C)cn([C@H]4C[C@H](N=[N+]=[N-])[C@@H](CO)O4)c3=O)CC2)n1Cc1ccccc1	54.2 µg/mL
Cc1cc(/C=C/C#N)cc(C)c1Nc1ccnc(Nc2ccc(C#N)cc2)n1	10 µM
CC(=O)SCCOP(=O)(OCCSC(C)=O)OC[C@@H]1CC[C@H](n2cnc3c(N)ncnc32)O1	16 µM
Cc1cc(C)nc(NS(=O)(=O)c2ccc(N=C3C(=O)Nc4ccc(Br)cc43)cc2)n1	>125 µg/mL
Cc1nc(CCCCCOC(=O)C2CCCC2)n2nc(Cl)ccc12	250 µM
NC(N)=NCCC[C@H](N)C(=O)NC[C@@H]1OC(O[C@H]2[C@@H](O)[C@H](O[C@@H]3[C@@H](O)[C@H](NC(=O)[C@@H](N)CCCN=C(N)N)C[C@H](NC(=O)[C@@H](N)CCCN=C(N)N)[C@H]3O[C@H]3O[C@H](CNC(=O)[C@@H](N)CCCN=C(N)N)[C@@H](O)[C@H](O)[C@H]3NC(=O)[C@@H](N)CCCN=C(N)N)O[C@@H]2CO)[C@H](NC(=O)[C@@H](N)CCCN=C(N)N)[C@@H](O)[C@@H]1O	>55 µM
Cc1nc(CCCCCCC(=O)c2ccccc2)n2nc(N(C)C)ccc12	27 µM
COc1c(/C=C/C(=O)c2ccc(O)cc2)ccc(O)c1O	16 µg/mL
Cc1cn([C@@H]2O[C@@H](CO)C[C@@H]2O)c(=O)[nH]c1=O	>1000 µM
C/C(CO)=C(/Br)Cn1cc(C)c(=O)[nH]c1=O	>100 µg/mL
Nc1ncnc2c1ncn2C=C=CCO	>200 µM
Cc1cn([C@@H]2O[C@H](CO[Si](C)(C)C(C)(C)C)C3(OS(=O)(=O)C=C3N)[C@H]2O[Si](C)(C)C(C)(C)C)c(=O)n(CC(=O)N[C@@H](C)C(=O)O)c1=O	>250 µM
Cc1cn([C@H]2C[C@H](N=[N+]=[N-])[C@@H](CO)O2)c(=O)[nH]c1=O	2.2 µg/mL
Cc1cn([C@@H]2O[C@H](CO[Si](C)(C)C(C)(C)C)[C@@]3(OS(=O)(=O)C=C3N)[C@H]2O[Si](C)(C)C(C)(C)C)c(=O)n(CC(=O)N[C@@H](CCC(=O)O)C(=O)O)c1=O	>250 µM
Cc1cn([C@H]2C[C@H](N=[N+]=[N-])[C@@H](CO)O2)c(=O)[nH]c1=O	1 µg/mL
CC(=O)c1ccc(C)cc1NC(C(N)=O)c1c(Cl)cccc1Cl	49 µg/mL
O=[N+]([O-])c1cc(Cl)c(Cl)cc1[N+](=O)[O-]	>100 µM
COc1ccc(CN[C@@H](C(=O)N[C@H](C(=O)NCc2nc3ccccc3[nH]2)C(C)C)[C@H](O)[C@H](Cc2ccccc2)NC(=O)[C@@H](NC(=O)OCc2ccccc2)C(C)(C)C)cc1	12.1 µM
Nc1ncnc2c1ncn2CCOCP(=O)(OCCSSCCO)OCCSSCCO	20 µM
Cc1cn([C@H]2CC[C@H](CO)O2)c(=O)[nH]c1=O	>1000 µM
CC1=C(/C=C/C(C)=C/C=C/C(C)=C/C(=O)O)C(C)(C)CCC1	>10 µg/mL
COC(=O)[C@H](C)NP(=O)(OC[C@@H]1C=C[C@H](n2cc(C)c(=O)[nH]c2=O)O1)Oc1ccccc1	>100 µM
O=C1CSC(c2c(Cl)cccc2Cl)N1Cc1ccco1	44.5 µM
Cc1nc(CCCCCC(=O)c2ccccc2)n2nc(Cl)ccc12	250 µM
CC(=O)OC[C@H]1O[C@@H](SCCOP(=O)(OCCS[C@@H]2O[C@H](CO)[C@@H](O)[C@H](O)[C@H]2O)OC[C@H]2O[C@@H](n3cc(C)c(=O)[nH]c3=O)C[C@@H]2N=[N+]=[N-])[C@H](OC(C)=O)[C@@H](OC(C)=O)[C@@H]1OC(C)=O	>10 µM
Nc1ncnc2c1ncn2/C=C1/C[C@@H]1CO	>100 µM
C/C(CO)=C(/Br)Cn1cc(I)c(=O)[nH]c1=O	>100 µg/mL
CCOC(=O)c1oc2cc(O)cc(O)c2c(=O)c1Oc1ccccc1	>100 µg/mL
CC(C)OP(=O)(COC[C@H]1C[C@@]1(c1ccccc1)n1cnc2c(N)ncnc21)OC(C)C	>100 µM
Cc1cn([C@@H]2O[C@@H](CO)[C@@H](N)[C@H]2O)c(=O)[nH]c1=O	>1000 µM

Repeating the final 5 entries:

{"smiles": "Nc1ncnc2c1ncn2/C=C1/C[C@@H]1CO", "value": ">100 µM"}
{"smiles": "C/C(CO)=C(/Br)Cn1cc(I)c(=O)[nH]c1=O", "value": ">100 µg/mL"}
{"smiles": "CCOC(=O)c1oc2cc(O)cc(O)c2c(=O)c1Oc1ccccc1", "value": ">100 µg/mL"}
{"smiles": "CC(C)OP(=O)(COC[C@H]1C[C@@]1(c1ccccc1)n1cnc2c(N)ncnc21)OC(C)C", "value": ">100 µM"}
{"smiles": "Cc1cn([C@@H]2O[C@@H](CO)[C@@H](N)[C@H]2O)c(=O)[nH]c1=O", "value": ">1000 µM"}